Results of single-concentration screens

From ChEMBL document CHEMBL3988442, “University of Dundee, Small-Polar-MMV Screening Library” (2021).

Mtb glucose medium: 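Whole-cell growth test on Mycobacterium tuberculosis, read after 3 days in glucose-containing 7H9 medium; the read-out is not stated. Tested at 500 µM. Higher reads as more growth inhibition (inferred: compounds with an IC50 in retests scored well above the rest). About 18,000 compounds were tested under these conditions; 7.9% (about 1,400) showed 50% or more at least once.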
Mtb cholesterol medium: 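Whole-cell growth test on Mycobacterium tuberculosis, read after 4 days in a medium based on cholesterol and the lipid DPPC; the read-out is not stated. Concentration: 500 µM. Direction is inferred from retests: higher values go with more growth inhibition. Of about 18,000 compounds tested this way, about 900 (5%) reached 50% or more in at least one test.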

Values are the deposited “Percent Effect”, in %.
The controls that fix the scale are not given in the record; negative values are as filed.
This is part of a subset picked to be rich in strong results.
A dash means the value is not listed here; it may have been measured.

structure: CCSc1nc2ccccc2c(=O)n1CCCO
Mtb glucose medium: 86.37
Mtb cholesterol medium: 88.4

structure: O=C(Nc1cccs1)NC1(CCO)CCC1
Mtb glucose medium: -3.304

structure: OCC(O)c1cc2n(n1)CCN(Cc1ccoc1)C2 (centres unmarked)
Mtb glucose medium: -9.073

structure: Cc1nn(C)c2c1NC(=O)CO2
Mtb cholesterol medium: -21.4

structure: COCCN(CC(N)=O)CC(=O)N(C)c1ccccc1
Mtb glucose medium: 16.69

structure: CCOC(=O)c1cnc(N2CCNCC2)s1
Mtb glucose medium: 61.28
Mtb cholesterol medium: 58.64

structure: Cc1nnnn1-c1cccc(-n2cnnn2)c1
Mtb glucose medium: 11.2
Mtb cholesterol medium: 8.535

structure: NC(=O)Cn1cc(N)cn1
Mtb cholesterol medium: 17.49

structure: CCN1CCN(CC(O)COc2ccccc2)CC1 (centres unmarked)
Mtb glucose medium: 0.5184

structure: Cn1nc(C2CCCNC2)n(Cc2ccccc2)c1=O (centres unmarked)
Mtb glucose medium: 11.74

structure: Cc1cc(NC(=O)NCC(O)CN2CCCCC2)no1 (centres unmarked)
Mtb cholesterol medium: 1.281

structure: Cn1cc(I)c(=O)n(Cc2ccccn2)c1=O
Mtb glucose medium: -13.55

structure: NC(=O)N1CCCN(Cc2cc(Cl)cs2)CC1
Mtb glucose medium: 24.66

structure: CC(=O)N1CCC(NCc2ccc3c(c2)OCO3)CC1
Mtb glucose medium: 10.8

structure: OC1CNCCNC1
Mtb cholesterol medium: -16.52

structure: COc1ccc(Cc2[nH][nH]c(=O)c2CCN)cc1
Mtb glucose medium: 60.4
Mtb cholesterol medium: 48.3

structure: CCCC(=O)Nc1ccc(N2CCN(C)CC2)cc1C
Mtb glucose medium: -18.18

structure: CC(=O)Nc1nc(C(=O)NCCc2cccnc2)cs1
Mtb glucose medium: -3.601
Mtb cholesterol medium: -19

structure: Cc1nc(C2(N)CCC2)no1
Mtb cholesterol medium: -7.464

structure: O=C(c1c(F)cccc1F)N1CCNCC1
Mtb cholesterol medium: -5.901

structure: CN(Cc1ccc(F)c(F)c1)C(=O)C1CCOCC1
Mtb glucose medium: 36.14
Mtb cholesterol medium: 40.24

structure: N#CC1(C(=O)NCc2ccncc2)CCOCC1
Mtb glucose medium: 1.963

structure: Nc1ccc(CN2CCCC2)cn1
Mtb cholesterol medium: -19.18

structure: COc1ccc(COCCNC(C)=O)cc1
Mtb glucose medium: 21.53

structure: CCS(=O)(=O)NCCNC(C)(C)c1nccs1
Mtb glucose medium: 5.782

structure: CC1CCCN(c2cc(CNS(C)(=O)=O)ccn2)C1 (centres unmarked)
Mtb glucose medium: 61.12
Mtb cholesterol medium: 64.88

Some entries from above, unchanged:

structure,Mtb glucose medium,Mtb cholesterol medium
CCS(=O)(=O)NCCNC(C)(C)c1nccs1,5.782,-
CCOC(=O)c1cnc(N2CCNCC2)s1,61.28,58.64